Results as given in publication PMC9393390 (Frontiers in Pharmacology, 2022).
pKd: −log10 of the molar value.

Molecular target: T1, SARS-CoV-2-RBD (S-RBD) (Severe acute respiratory syndrome coronavirus 2, UniProt P0DTC2)
T1 construct: purchased Sino Biological
Test: Surface plasmon resonance (SPR) binding to immobilized S-RBD
Conditions: 25 °C, 1:1 binding model, read-out: S-RBD K D

Substance | pKd
Aescin | 5.43
Teichomycin | 4.32
